Data taken from patent US12036225B2, “Use of ibezapolstat to promote microbiome health” (Acurx Pharmaceuticals, Inc., priority 2021, dated 2024).

Columns and labels:
Type in all cases: in vivo, human
gut microbiome = test: Phase I healthy volunteer study: stool microbiome by shotgun metagenomic / 16S sequencing (alpha/beta diversity, taxa); conditions: healthy subjects; for Shannon alpha diversity, average change ± standard deviation over the study time period: p vs placebo in brackets
[1] = system: primary and secondary bile acids; test: Phase I healthy volunteer study: stool bile acids by LC-MS; conditions: healthy subjects
[2] = system: primary and secondary bile acids; test: Phase 2a trial: fecal bile acids by LC-MS; conditions: CDI patients
[3] = ibezapolstat 300 mg twice daily 10 days
[4] = ibezapolstat 450 mg twice daily 10 days

**Q.** What does the source list for `O=c1[nH]c(NCc2ccc(Cl)c(Cl)c2)nc2ncn(CCN3CCOCC3)c12` [Ibezapolstat, 2-((3,4-dichlorobenzyl)amino)-7-(2-morpholinoethyl)-1,7-dihydro-6H-purin-6-one]?
**A.** Proportional change (mean ± SE): Actinobacteria (phylum) (gut microbiome; Ibezapolstat 300 mg): 0.31 ± 0.053; Proportional change (mean ± SE): Bacteroidetes (phylum) (gut microbiome; Ibezapolstat 300 mg): −0.0055 ± 0.025; Proportional change (mean ± SE): Fusobacteria (phylum) (gut microbiome; Ibezapolstat 300 mg): 0.0011 ± 0.015; Proportional change (mean ± SE): c_Actinobacteria (gut microbiome; Ibezapolstat 300 mg): 0.27 ± 0.052; Proportional change (mean ± SE): c_Actinobacteria o_Bifidobacteriales (gut microbiome; Ibezapolstat 300 mg): 0.27 ± 0.053; Proportional change (mean ± SE): c_Actinobacteria o_Bifidobacteriales f_Bifidobacteriaceae (gut microbiome; Ibezapolstat 300 mg): 0.27 ± 0.053; Proportional change (mean ± SE): c_Bacilli (gut microbiome; Ibezapolstat 300 mg): 0.016 ± 0.044; Proportional change (mean ± SE): c_Bacilli o_Lactobacillales (gut microbiome; Ibezapolstat 300 mg): 0.016 ± 0.044; Proportional change (mean ± SE): c_Bacilli o_Lactobacillales f_Lactobacillaceae (gut microbiome; Ibezapolstat 300 mg): 0.024 ± 0.042; Proportional change (mean ± SE): c_Coriobacteriia (gut microbiome; Ibezapolstat 300 mg): 0.036 ± 0.016; Proportional change (mean ± SE): c_Coriobacteriia o_Coriobacteriales (gut microbiome; Ibezapolstat 300 mg): 0.035 ± 0.016; Proportional change (mean ± SE): c_Coriobacteriia o_Coriobacteriales f_Coriobacteriaceae (gut microbiome; Ibezapolstat 300 mg): 0.034 ± 0.016; Proportional change (mean ± SE): c_Gammaproteobacteria (gut microbiome; Ibezapolstat 300 mg): 0.12 ± 0.046; Proportional change (mean ± SE): c_Gammaproteobacteria o_Enterobacterales (gut microbiome; Ibezapolstat 300 mg): 0.11 ± 0.043; Proportional change (mean ± SE): c_Gammaproteobacteria o_Enterobacterales f_Enterobacteriaceae (gut microbiome; Ibezapolstat 300 mg): 0.11 ± 0.042; Proportional change (mean ± SE): Actinobacteria (phylum) (gut microbiome; Ibezapolstat 450 mg): 0.31 ± 0.054; Proportional change (mean ± SE): Bacteroidetes (phylum) (gut microbiome; Ibezapolstat 450 mg): 0.013 ± 0.025; Proportional change (mean ± SE): Fusobacteria (phylum) (gut microbiome; Ibezapolstat 450 mg): 0.00046 ± 0.015; Proportional change (mean ± SE): Proteobacteria (phylum) (gut microbiome; Ibezapolstat 450 mg): 0.09 ± 0.05; Proportional change (mean ± SE): c_Actinobacteria (gut microbiome; Ibezapolstat 450 mg): 0.29 ± 0.053; Proportional change (mean ± SE): c_Actinobacteria o_Bifidobacteriales (gut microbiome; Ibezapolstat 450 mg): 0.29 ± 0.053; Proportional change (mean ± SE): c_Actinobacteria o_Bifidobacteriales f_Bifidobacteriaceae (gut microbiome; Ibezapolstat 450 mg): 0.29 ± 0.053; Proportional change (mean ± SE): c_Bacilli (gut microbiome; Ibezapolstat 450 mg): 0.017 ± 0.045; Proportional change (mean ± SE): c_Bacilli o_Lactobacillales (gut microbiome; Ibezapolstat 450 mg): 0.017 ± 0.045; Proportional change (mean ± SE): c_Bacilli o_Lactobacillales f_Lactobacillaceae (gut microbiome; Ibezapolstat 450 mg): 0.015 ± 0.043; Proportional change (mean ± SE): c_Coriobacteriia (gut microbiome; Ibezapolstat 450 mg): 0.024 ± 0.016; Proportional change (mean ± SE): c_Coriobacteriia o_Coriobacteriales (gut microbiome; Ibezapolstat 450 mg): 0.026 ± 0.016; Proportional change (mean ± SE): c_Coriobacteriia o_Coriobacteriales f_Coriobacteriaceae (gut microbiome; Ibezapolstat 450 mg): 0.025 ± 0.016; Proportional change (mean ± SE): c_Gammaproteobacteria (gut microbiome; Ibezapolstat 450 mg): 0.092 ± 0.046; Proportional change (mean ± SE): c_Gammaproteobacteria o_Enterobacterales (gut microbiome; Ibezapolstat 450 mg): 0.094 ± 0.044; Proportional change (mean ± SE): c_Gammaproteobacteria o_Enterobacterales f_Enterobacteriaceae (gut microbiome; Ibezapolstat 450 mg): 0.087 ± 0.043; Pielous alpha diversity, average change ± standard deviation over the study time period (gut microbiome; [3]): −0.0040 ± 0.024 (0.87); Simpson's alpha diversity, average change ± standard deviation over the study time period (gut microbiome; [3]): −0.013 ± 0.023 (0.59); Shannon alpha diversity, average change ± standard deviation over the study time period (gut microbiome; [3]): −0.12 ± 0.12 (0.31); Pielous alpha diversity, average change ± standard deviation over the study time period (gut microbiome; [4]): −0.051 ± 0.024 (0.031); Simpson's alpha diversity, average change ± standard deviation over the study time period (gut microbiome; [4]): −0.072 ± 0.022 (0.0019); Shannon alpha diversity, average change ± standard deviation over the study time period (gut microbiome; [4]): −0.45 ± 0.12 (0.0001); 1° bile acids, average change ± standard deviation [1, 3]: −3.7 ± 172 (0.98) ug/L; 1°:2° bile acid ratio, average change ± standard deviation [1, 3]: −1.3 ± 4.1 (0.75); 2° bile acids, average change ± standard deviation [1, 3]: −913 ± 675 (0.18) ug/L; 1° bile acids, average change ± standard deviation [1, 4]: 307 ± 161 (0.061) ug/L; 1°:2° bile acid ratio, average change ± standard deviation [1, 4]: 6.2 ± 3.8 (0.11); 2° bile acids, average change ± standard deviation [1, 4]: −971 ± 629 (0.13) ug/L; Primary bile acids, in words [2]: decrease in primary bile acids; decrease of total primary acids in feces vs baseline ([2]; after completion of therapy): 40.5±14.1 ng/mg stool; increase of total secondary bile acids vs baseline ([2]; after completion of therapy): 97.5±215.4 ng/mg stool; Secondary bile acids, in words ([2]; during and following therapy): increased concentration of secondary bile acids; decrease of total primary acids in feces vs baseline ([2]; during therapy): 40.1±9.6 ng/mg stool; increase of total secondary bile acids vs baseline ([2]; during therapy): 65.6±146.7 ng/mg stool
